A mixed list of measured activities; the numbers were collected in NIAID ChemDB.

All rows: tests in culture; species: Mycobacterium avium

ECn: concentration that inhibits the pathogen or its effect by n%.

CC[C@H]1OC(=O)[C@H](C)[C@@H](O[C@H]2C[C@@](C)(OC)[C@@H](O)[C@H](C)O2)[C@H](C)[C@@H](O[C@@H]2O[C@H](C)C[C@H](N(C)C)[C@H]2O)[C@](C)(OC)C[C@@H](C)C(=O)[C@H](C)[C@@H](O)[C@]1(C)O ; method: resazurin ; measure: EC50 ; result: >200 µg/mL
NCC[C@H](O)C(=O)N[C@@H]1C[C@H](N)[C@@H](O[C@H]2O[C@H](CN)[C@@H](O)[C@H](O)[C@H]2O)[C@H](O)[C@H]1O[C@H]1O[C@H](CO)[C@@H](O)[C@H](N)[C@H]1O ; strain or isolate: ATCC 25291 ; measure: Mean MIC ; result: 5.8 µg/mL
CO[C@H]1/C=C/O[C@@]2(C)Oc3c(C)c(O)c4c(O)c(c(/C=N/N5CCN(C)CC5)c(O)c4c3C2=O)NC(=O)/C(C)=C\C=C\[C@H](C)[C@H](O)[C@@H](C)[C@@H](O)[C@@H](C)[C@H](OC(C)=O)[C@@H]1C ; strain or isolate: clinical sample ; measure: MIC50 ; result: 2 µg/mL
C[C@H]1COc2c(N3C[C@@H](N)C4(CC4)C3)c(F)cc3c(=O)c(C(=O)O)cn1c23 ; strain or isolate: 4 strains ; measure: Mean MIC ; result: 3.1 µg/mL
NC[C@H]1O[C@H](O[C@H]2[C@H](O)[C@@H](O[C@H]3O[C@H](CO)[C@@H](O)[C@H](N)[C@H]3O)[C@H](N)C[C@@H]2N)[C@H](N)C[C@@H]1O ; strain or isolate: ATCC 25291 ; measure: Mean MIC ; result: 4 µg/mL
CC[C@@H](CO)NCCN[C@@H](CC)CO ; strain or isolate: Clinical isolate ; measure: MIC50 ; result: 1 µg/mL
CCNC(=O)Nc1ccc(S(=O)(=O)Nc2cc(C)on2)cc1 ; strain or isolate: 330/88 ; method: broth dilution / absorbance ; setting: 14 d ; measure: MIC100 ; result: 1000 µM
CC(C)N=c1cc2n(-c3ccc(Cl)cc3)c3ccccc3nc-2cc1Nc1ccc(Cl)cc1 ; strain or isolate: ATCC 25291 ; measure: Mean MIC ; result: 0.39 µg/mL
CC[C@H]1OC(=O)[C@H](C)[C@@H](O[C@H]2C[C@@](C)(OC)[C@@H](O)[C@H](C)O2)[C@H](C)[C@@H](O[C@@H]2O[C@H](C)C[C@H](N(C)C)[C@H]2O)[C@](C)(O)C[C@@H](C)[C@@H]2N[C@@H](COCCOC)O[C@H]([C@H]2C)[C@]1(C)O ; strain or isolate: 30 strains ; measure: Median MIC ; result: 4 µg/mL
CO[C@H]1/C=C/O[C@@]2(C)Oc3c(C)c(O)c4c(O)c(c5c(c4c3C2=O)NC2(CCN(CC(C)C)CC2)N=5)=NC(=O)/C(C)=C\C=C\[C@H](C)[C@H](O)[C@@H](C)[C@@H](O)[C@@H](C)[C@H](OC(C)=O)[C@@H]1C ; strain or isolate: Isolate 90-0177 ; measure: MIC ; result: 1 µg/mL
Cc1cc(-c2cc3c(cc2F)c(=O)c(C(=O)O)cn3C2CC2)cc(C)n1 ; strain or isolate: 55 strains ; measure: MIC50 ; result: 0.7 µg/mL
N[C@@H]1CONC1=O ; strain or isolate: ATCC 25291 ; measure: Mean MIC ; result: 37.5 µg/mL
C[C@H]1COc2c(N3CC[C@H](N)C3)c(F)cc3c(=O)c(C(=O)O)cn1c23 ; strain or isolate: 4 strains ; measure: Mean MIC ; result: 15.6 µg/mL
CC[C@H]1OC(=O)[C@H](C)[C@@H](O[C@H]2C[C@@](C)(OC)[C@@H](O)[C@H](C)O2)[C@H](C)[C@@H](O[C@@H]2O[C@H](C)C[C@H](N(C)C)[C@H]2O)[C@](C)(OC)C[C@@H](C)C(=O)[C@H](C)[C@@H](O)[C@]1(C)O ; strain or isolate: ATCC 25291 ; measure: Median MIC ; result: 5 µg/mL
Cc1cc(NS(=O)(=O)c2ccc(NC(=O)N(C(C)C)C(C)C)cc2)no1 ; strain or isolate: 330/88 ; method: broth dilution / absorbance ; setting: 14 d ; measure: MIC100 ; result: >1000 µM
CC(C)N=c1cc2n(-c3ccc(Cl)cc3)c3ccccc3nc-2cc1Nc1ccc(Cl)cc1 ; strain or isolate: 3090 ; measure: MIC ; result: 0.12 µg/mL
CCN(CC)c1nc2c(s1)c1c(O)c3c(O)c(C)c4c(c32)C(=O)[C@@](C)(O/C=C/[C@H](OC)[C@@H](C)[C@@H](OC(C)=O)[C@H](C)[C@H](O)[C@H](C)[C@@H](O)[C@@H](C)/C=C/C=C(/C)C(=O)N1)O4 ; strain or isolate: 9141 ; measure: MBC ; result: 4 µg/mL
CO[C@H]1/C=C/O[C@@]2(C)Oc3c(C)c(O)c4c(O)c(c(/C=N/N5CCN(C6CCCC6)CC5)c(O)c4c3C2=O)NC(=O)/C(C)=C\C=C\[C@H](C)[C@H](O)[C@@H](C)[C@@H](O)[C@@H](C)[C@H](OC(C)=O)[C@@H]1C ; strain or isolate: ATCC 25291 ; measure: Mean MIC ; result: >1 µg/mL
CO[C@H]1/C=C/O[C@@]2(C)Oc3c(C)c(O)c4c(O)c(c5c(c4c3C2=O)NC2(CCN(CC(C)C)CC2)N=5)=NC(=O)/C(C)=C\C=C\[C@H](C)[C@H](O)[C@@H](C)[C@@H](O)[C@@H](C)[C@H](OC(C)=O)[C@@H]1C ; strain or isolate: Clinical isolate ; measure: MIC50 ; result: >0.5 µg/mL
C[C@H]1COc2c(N3C[C@@H](N)C4(CCC4)C3)c(F)cc3c(=O)c(C(=O)O)cn1c23 ; strain or isolate: 4 strains ; measure: Mean MIC ; result: 2.3 µg/mL
CCn1cc(C(=O)O)c(=O)c2cc(F)c(-n3cccc3)cc21 ; strain or isolate: 22 strains ; measure: MIC50 ; result: 32 µg/mL
CCCCCCCCCCNC(=O)Nc1ccc(S(=O)(=O)Nc2cc(C)on2)cc1 ; strain or isolate: 330/88 ; method: broth dilution / absorbance ; setting: 14 d ; measure: MIC100 ; result: 125 µM
CN[C@@H]1[C@H](O[C@H]2[C@H](O[C@H]3[C@H](O)[C@@H](O)[C@H](N=C(N)N)[C@@H](O)[C@@H]3N=C(N)N)O[C@@H](C)[C@]2(O)C=O)O[C@@H](CO)[C@H](O)[C@H]1O ; strain or isolate: ATCC 25291 ; measure: Mean MIC ; result: 1.25 µg/mL
CC(=O)O[C@H]1C[C@@]2(C)[C@@H](C[C@@H](O)[C@H]3[C@@]4(C)CC[C@@H](O)[C@@H](C)[C@@H]4CC[C@@]32C)/C1=C(\CCC=C(C)C)C(=O)O ; strain or isolate: 22 strains ; measure: MIC50 ; result: 32 µg/mL
COC1=CC(=O)c2c(O)cc(C)cc2C1=O ; measure: MFC ; result: 400 µg/mL
O=C(O)c1cc(C(F)(F)F)cc2c(=O)nc(N3CCN(CC4CCCCC4)CC3)sc12 ; strain or isolate: ATCC 15769 ; method: resazurin ; measure: MIC99 ; result: >100 µg/mL
COc1nc2ccc(Br)cc2cc1[C@@H](c1ccccc1)[C@@](O)(CCN(C)C)c1cccc2ccccc12 ; measure: MIC99 ; result: 0.01 µg/mL
CCNCC1CCN(c2c(F)cc3c(=O)c(C(=O)O)cn(CC)c3c2F)C1 ; strain or isolate: 22 strains ; measure: MIC50 ; result: 64 µg/mL
CC[C@H]1OC(=O)[C@H](C)[C@@H](O[C@H]2C[C@@](C)(OC)[C@@H](O)[C@H](C)O2)[C@H](C)[C@@H](O[C@@H]2O[C@H](C)C[C@H](N(C)C)[C@H]2O)[C@](C)(OC)C[C@@H](C)C(=O)[C@H](C)[C@@H](O)[C@]1(C)O ; strain or isolate: 3350 ; method: broth dilution / radiometric ; setting: pH 6.8 ; measure: MBC ; result: 32 µg/mL
CC(=O)O[C@H]1C[C@@]2(C)[C@@H](C[C@@H](O)[C@H]3[C@@]4(C)CC[C@@H](O)[C@@H](C)[C@@H]4CC[C@@]32C)/C1=C(\CCC=C(C)C)C(=O)O ; strain or isolate: ATCC 25291 ; measure: Median MIC ; result: 12 µg/mL
C[C@H]1COC2(CCN(c3nc(=O)c4cc(C(F)(F)F)cc(C(=O)O)c4s3)CC2)O1 ; strain or isolate: ATCC 13032 ; method: resazurin ; measure: MIC99 ; result: >100 µg/mL
CCCCCCCNC(=O)Nc1ccc(S(=O)(=O)Nc2cc(C)on2)cc1 ; strain or isolate: 330/88 ; method: broth dilution / absorbance ; setting: 14 d ; measure: MIC100 ; result: 32 µM
C[C@H]1COc2c(N3CC(C)(N)C3)c(F)cc3c(=O)c(C(=O)O)cn1c23 ; strain or isolate: 4 strains ; measure: Mean MIC ; result: 20.3 µg/mL
CC1CN(c2cc3c(cc2F)c(=O)c(C(=O)O)cn3-c2ccc(F)cc2F)CCN1 ; strain or isolate: 22 strains ; measure: MIC50 ; result: 2 µg/mL

A number after MIC or MFC names an inhibition level or a share of isolates. Conditions beyond the fields shown may differ between rows.